According to ChEMBL document CHEMBL5331107 (J Med Chem, 2023):

Tests used:
Conditions in all cases: human
in vitro [1] = assay: in vitro
in vitro [2] = assay: in vitro; remark: listed apart in the source
in vitro [3] = assay: in vitro; remark: listed apart in the source
in vitro [4] = assay: in vitro; remark: listed apart in the source
in vitro [5] = assay: in vitro; remark: listed apart in the source
in vitro [6] = assay: in vitro; remark: listed apart in the source
in vitro [7] = assay: in vitro; remark: listed apart in the source
in vitro [8] = assay: in vitro; remark: listed apart in the source

In the case of Cc1cc(C#N)cc(C)c1Oc1nc(Nc2ccc(C#N)cc2)nc(N)c1Br [ETRAVIRINE], the selectivity ratio (in vitro [1]) is reported as over 1170, the selectivity ratio (in vitro [2]) is reported as over 179 and the selectivity ratio (in vitro [3]) is reported as over 330. For the same compound, the selectivity ratio (in vitro [4]) was over 278, the selectivity ratio (in vitro [5]) was over 221 and the selectivity ratio (in vitro [6]) was over 144. For the same compound, the selectivity ratio (in vitro [7]) was over 1320 and the selectivity ratio (in vitro [8]) was over 69.
